The target in test [1] is T1, cAMP-specific 3',5'-cyclic phosphodiesterase 4B (Crotalus adamanteus) (UniProt J3SE37).
T1 sequence (whole entry): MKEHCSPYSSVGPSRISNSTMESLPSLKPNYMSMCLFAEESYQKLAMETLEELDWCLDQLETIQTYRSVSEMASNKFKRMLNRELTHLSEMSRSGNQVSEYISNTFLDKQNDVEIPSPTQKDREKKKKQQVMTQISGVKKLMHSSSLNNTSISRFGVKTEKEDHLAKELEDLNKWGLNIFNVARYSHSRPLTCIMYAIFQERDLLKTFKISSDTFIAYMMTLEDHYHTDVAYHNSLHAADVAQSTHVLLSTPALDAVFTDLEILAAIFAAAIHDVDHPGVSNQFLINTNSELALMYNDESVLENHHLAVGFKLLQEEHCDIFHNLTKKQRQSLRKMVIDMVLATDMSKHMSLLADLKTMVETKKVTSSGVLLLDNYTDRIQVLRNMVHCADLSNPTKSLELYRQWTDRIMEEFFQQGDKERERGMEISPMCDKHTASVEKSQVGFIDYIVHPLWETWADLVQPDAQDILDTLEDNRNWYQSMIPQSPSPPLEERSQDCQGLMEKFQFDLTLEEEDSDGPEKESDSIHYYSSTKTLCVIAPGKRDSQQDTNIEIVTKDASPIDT
Kind of test: Inhibition of snake venom phosphodiesterase using bis-(para-nitrophenyl)phosphate as substrate at 0.1 mM after 30 min by spectrophotometric analysis. The following applies: Serpentes.

Test [2] deals with T1, cAMP-specific 3',5'-cyclic phosphodiesterase 4B (Crotalus adamanteus). Kind of test: Inhibition of snake venom phosphodiesterase using bis-(para-nitrophenyl)phosphate as substrate at 0.2 mM after 30 min by spectrophotometric analysis. To be noted: Serpentes.

Active and inactive are the calls of the source. The calls are words filed in the database; no cut-off is given here.

`COc1cccc(-c2cc(-c3ccc(-n4ccnc4)cc3)nc(N)n2)c1` yielded an inhibition in test [1] of 22.4%. For the compound `COc1cc(-c2cc(-c3ccc(-n4ccnc4)cc3)nc(N)n2)ccc1OO`, the inhibition entry in test [1] was “inactive”. `Nc1nc(-c2ccc(-n3ccnc3)cc2)cc(-c2ccc(Cl)c(Cl)c2Cl)n1` displayed an inhibition in test [2] of 12%. Consider `Nc1nc(-c2ccc(F)cc2)cc(-c2ccc(-n3ccnc3)cc2)n1`, for which the inhibition result in test [1] was “inactive”.

On to `Nc1nc(-c2ccc(-n3ccnc3)cc2)cc(-c2cc(Cl)ccc2Cl)n1`, for which the inhibition entry in test [1] was “inactive”. The compound `Nc1nc(-c2ccc(I)cc2)cc(-c2ccc(-n3ccnc3)cc2)n1` returned an inhibition in test [1] of 11.7%. Turning to `Nc1nc(-c2ccc(Cl)cc2)cc(-c2ccc(-n3ccnc3)cc2)n1`, in test [2], the inhibition entry is “inactive”. Regarding `Nc1nc(-c2ccc(-n3ccnc3)cc2)cc(-c2ccc(Cl)cc2Cl)n1`, the inhibition entry in test [2] was “inactive”. `Nc1nc(-c2ccc(Br)cc2)cc(-c2ccc(-n3ccnc3)cc2)n1` showed an inhibition in test [1] of 9.2%. For `Nc1nc(-c2ccccc2)cc(-c2ccc(-n3ccnc3)cc2)n1`, the inhibition result in test [2] was “inactive”. Still for that read-out and setting: the figure for `COc1ccc(-c2cc(-c3ccc(-n4ccnc4)cc3)nc(N)n2)cc1` is 12%.
